Results deposited as PubChem BioAssay AID504761 (Drosophila RNAi Screening Center, 2011)
The screen tested about 22,000 reagents; this is an unselected part of those with a known target gene and a result. Of all reagents, 116 (0.52%) are marked active. 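Calls depend on retest data that are not deposited; infection was ranked per plate without normalising between plates; the unit of the infection score is not given.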 The raw values are shown without normalisation. The numbers tell different reagents against one gene apart. Further read-outs or replicates are left out here. Not stated in the record: the amount of reagent, the time to read-out.

Assay: 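Insect host genes that dengue virus relies on to spread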 (primary screen)
Cell system: D.Mel-2 cells from Drosophila
Reagents: long dsRNA against Drosophila genes
Challenge: infection with dengue virus type 2; dose and infection time not stated
Measured: 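Per well on two replicate plates, imaging gave the percent of cells positive for viral envelope protein, ranked by infection, and a nuclear count of cells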
Scale: infection score: higher = more virus-infected cells; cell count: higher = more cells in the well
Hit rule: 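Low infection ranks in the two replicates (chance level up to 0.065) followed by a retest with a 1.5-fold or larger significant decrease, p below 0.05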
Meaning of the calls: active = confirmed: knock-down lowers infection; inactive = not picked or not confirmed

Gene,reagent,"infection score, replicate 1","infection score, replicate 2","cell count, replicate 1",call
Fadd,1,1.35,2.1,7416,inactive
CG2812,1,9.26,18.5,6567,inactive
CG2812,2,15.9,12.5,4040,inactive
blot,1,1.06,0.33,5670,inactive
blot,2,4.32,2.61,5420,inactive
blot,3,12.3,5.97,5575,inactive
CG14630,1,3.17,1.12,6365,inactive
CG14630,2,1.35,2.24,5983,inactive
Zip102B,1,0.93,7.71,7192,inactive
Zip102B,2,2.31,8.41,6847,inactive
Nelf-E,1,5.91,3.91,6587,inactive
CG16815,1,20,19.2,4519,inactive
CG16815,2,12.4,13.1,6614,inactive

Next part (2 carried over from the part before).
Gene,reagent,"infection score, replicate 1","infection score, replicate 2","cell count, replicate 1",call
CG16815,1,20,19.2,4519,inactive
CG16815,2,12.4,13.1,6614,inactive
Dh44-R1,1,6.08,10.2,6349,inactive
Dh44-R1,2,16.5,19,6057,inactive
GrlHz,1,13.6,35,6534,inactive
Cse1,1,1.78,9.88,6013,inactive
Cse1,2,3.98,4.19,2110,inactive
Myo10A,1,0.88,5.13,6358,inactive
Myo10A,2,5.9,6.58,5748,inactive
Syt14,1,8.18,5.28,6759,inactive
CG31882,1,6.38,0.53,4888,inactive
CG8042,1,11.9,8.51,5945,inactive
CG8042,2,11.1,10.8,6654,inactive
